A mixed list of measured activities; the numbers were collected in NIAID ChemDB.

Common to all: whole-cell or culture tests; agent: Hepatitis C virus; cells: Huh7; read-out: EC50

ECn: concentration that inhibits the pathogen or its effect by n%. Conditions beyond the fields shown may differ between rows. a–b is a range or a potency band. Blank or dashed fields: not listed here.

structure	strain or isolate	mutations	read by	value
O=C(Nc1ccc(C2SC(=Nc3ccc(N4CCOCC4)cc3)N(c3ccccn3)C2=O)cc1)[C@H]1CCCN1C(=O)OCc1ccccc1	-	-	replicon	<0.1 µM
CN(C)S(=O)(=O)NC(=O)c1ccc2c(C3CCCCC3)c3n(c2c1)CC(C(=O)N1CCNCC1)=Cc1ccccc1-3	-	-	replicon	0.01–1 µM
COc1c(-c2ccc3cc(NS(C)(=O)=O)ccc3c2)cc(-n2ccc(=O)[nH]c2=O)cc1C(C)(C)C	genotype 1b	M423T	luciferase	0.00064 µM
CCOc1ccc2oc(-c3ccc(Cl)s3)c(C(=O)NC)c2c1	-	-	replicon	<10 µM
C[C@H](NC(=O)OCc1ccccc1)C(=O)Nc1ccc(C2SC(=Nc3ccc(N4CCOCC4)cc3)N(Cc3ccccn3)C2=O)cc1	-	-	replicon	>5 µM
CN(c1ccccc1/C=N/NC(=O)Cc1ccc2c(c1)OCO2)S(=O)(=O)c1ccc(C(F)(F)F)cc1	-	-	replicon	<5 µM
CNC(=O)c1c(-c2ccc(F)cc2)oc2cc(N3CCC(S(C)(=O)=O)C3)c(OC(C)C)cc12	-	-	replicon	<1 µM
COC(=O)C1=C(C)c2ccc(Cl)cc2-c2c(C3CCCCC3)c3ccc(C(=O)OC)cc3n2C1	-	-	replicon	0.01–1 µM
CC(C)(C)c1ccc(COc2ccccc2/C=N/NC(=O)Cc2cccnc2)cc1	-	-	replicon	>50 µM
CNC(=O)c1c(-c2ccc(F)cc2)oc2cc(N(C)S(C)(=O)=O)c(OCc3c(C)noc3C)cc12	-	-	replicon	<1 µM
C[C@H](C(=O)Nc1ccc(C2SC(=Nc3ccc(N4CCOCC4)cc3)N(Cc3ccccn3)C2=O)cc1)N(C)C(=O)OCc1ccccc1	-	-	replicon	0.1–1 µM
CNC(=O)c1c(-c2ccc(F)cc2)oc2cc(NCc3ccoc3)c(OC(C)C)cc12	-	-	replicon	<1 µM
COC(=O)C1=Cc2cccnc2-c2c(C3CCCCC3)c3ccc(C(=O)OC)cc3n2C1	-	-	replicon	1–10 µM
CNC(=O)c1c(-c2ccccc2)oc2ccc(CO)cc12	-	-	replicon	>100 µM
CN(C)S(=O)(=O)NC(=O)c1ccc2c(C3CCCCC3)c3n(c2c1)C[C@@H](O)[C@@H](O)c1ccccc1-3	-	-	replicon	0.01–1 µM
O=C(Cc1ccccc1)N/N=C/c1ccccc1OS(=O)(=O)c1cccc(Br)c1	-	-	replicon	5–50 µM
CNC(=O)c1c(-c2ccc(F)cc2)oc2cc(N(C)S(C)(=O)=O)c(OCc3nccn3C)cc12	-	-	replicon	<1 µM
CN(C)S(=O)(=O)NC(=O)c1ccc2c(C3CCCCC3)c3n(c2c1)CC(C(=O)N1CCCC(O)C1)Cc1ccccc1-3	-	-	replicon	0.01–1 µM
CNC(=O)c1c(-c2ccc(F)cc2)oc2cc(N(C)S(C)(=O)=O)c(OCC(=O)Nc3nc(C)c(C)s3)cc12	-	-	replicon	<1 µM
O=C(Nc1ccc(C2SC(=Nc3cccc(Oc4ccccc4)c3)N(Cc3ccco3)C2=O)cc1)[C@H]1CCCN1C(=O)OCc1ccccc1	-	-	replicon	0.1–1 µM
CCN(C)S(=O)(=O)NC(=O)c1ccc2c(C3CCCCC3)c3n(c2c1)CC(C(=O)N1CCOCC1)=Cc1ccccc1-3	-	-	replicon	0.01–1 µM
CC(C)(C)c1ccc(S(=O)(=O)Oc2ccccc2/C=N/NC(=O)Cc2ccccc2)cc1	-	-	replicon	<5 µM
COC(=O)/C=C/c1ccc(NC(=O)C2(NC(=O)c3ccc4c(C5CCCCC5)c5n(c4c3)CC(=O)Cc3ncccc3-5)CCCC2)cc1	-	-	replicon	0.01–1 µM
C=CCOc1cc2c(C(=O)NC)c(-c3ccc(F)cc3)oc2cc1NCC	-	-	replicon	<1 µM
COc1cccc(CC(=O)N/N=C/c2ccccc2OS(=O)(=O)c2ccc(OC(C)C)cc2)c1	-	-	replicon	<5 µM

The last 3 rows once more:

structure,strain or isolate,mutations,read by,value
COC(=O)/C=C/c1ccc(NC(=O)C2(NC(=O)c3ccc4c(C5CCCCC5)c5n(c4c3)CC(=O)Cc3ncccc3-5)CCCC2)cc1,-,-,replicon,0.01–1 µM
C=CCOc1cc2c(C(=O)NC)c(-c3ccc(F)cc3)oc2cc1NCC,-,-,replicon,<1 µM
COc1cccc(CC(=O)N/N=C/c2ccccc2OS(=O)(=O)c2ccc(OC(C)C)cc2)c1,-,-,replicon,<5 µM